Compound potency records, mixed from different reports. Data source: NIAID ChemDB in PubChem.

All rows: growth or infection tests; agent: Candida albicans

Blank or dashed fields: not listed here. A number after MIC or MFC names an inhibition level or a share of isolates. Two numbers with a dash give a range or band. Conditions beyond the fields shown may differ between rows. ECn is the concentration giving n% inhibition of infection, replication or growth.

{"compound": "S=C(S)n1nnc2ccccc21", "conditions": "48 h", "endpoint": "EC50", "strain": "Clinical isolate", "read by": "broth dilution / absorbance", "result": ">50 µg/mL"}
{"compound": "NC(=O)N=Nc1c(O)[nH]c2cc(Cl)ccc12", "endpoint": "MIC", "result": ">1.56 µg/mL"}
{"compound": "C=C1C[C@@H]2C[C@@H]3CCO[C@@H](O3)c3coc(n3)/C=C/C[C@H]3O[C@@H](/C(C)=C/c4coc(C[C@]5(O)C[C@H](OC)C[C@H]([C@H](O)/C=C(C)/C=C/[C@@H](C/C=C/Cl)OC)O5)n4)[C@H](C)[C@@H](OC(=O)/C=C\\C[C@@H](C1)O2)[C@H]3C", "endpoint": "MIC", "strain": "96-489", "read by": "broth dilution", "result": "4 µg/mL"}
{"compound": "CC(C)OC(=O)C1OC(c2ccccc2O)OC1C(=O)OC(C)C", "endpoint": "MIC", "strain": "ATCC 10231", "read by": "broth dilution", "result": "156 µg/mL"}
{"compound": "CC(=O)Oc1cc(Cl)ccc1C(=O)N(C(C)=O)c1ccc(Br)cc1", "endpoint": "MIC", "strain": "ATCC 44859", "result": "≤31.25 µg/mL"}
{"compound": "Fc1ccc(-c2nc3cc(NC(=S)Nc4ccc(Cl)cc4)ccc3n2C2CCCC2)cc1", "endpoint": "MIC", "result": "50 µg/mL"}
{"compound": "C=C(CN1CCOCC1)C(=O)c1ccc(OC)cc1", "endpoint": "EC50", "result": "20.71 µM"}
{"compound": "OC(Cn1cncn1)(Cn1c(-c2cccnc2)nc2ccccc21)c1ccc(F)cc1F", "endpoint": "MIC", "result": "100–200 µg/mL"}
{"compound": "CCCn1c(-c2ccc(F)cc2)nc2cc([N+](=O)[O-])ccc21", "endpoint": "MIC", "result": "12.5 µg/mL"}
{"compound": "CC(=O)Oc1c(Cl)cccc1C(=O)Nc1cccc(Cl)c1", "endpoint": "MIC", "strain": "ATCC 44859", "result": "31.25 µg/mL"}
{"compound": "O=C(NNC(=S)Nc1ccc(Cl)cc1Cl)C12CC3CC(CC(C3)C1)C2", "endpoint": "MIC", "strain": "CNCM 1180-79", "result": ">300 µg/mL"}
{"compound": "COC(=O)/C=C/C(=O)NCC(NC(=O)[C@@H](N)Cc1ccc(O)cc1)C(=O)O", "endpoint": "MIC", "result": "12.5 µg/mL"}
{"compound": "C/C(=N\\NC(=S)Nc1ccc([N+](=O)[O-])cc1)c1ccccn1", "endpoint": "MIC", "strain": "ATCC 10231", "read by": "broth dilution", "result": "10.7 µM"}
{"compound": "O=C(N=Nc1c(O)[nH]c2cccc(Cl)c12)Nc1ccc(Cl)cc1", "endpoint": "MIC", "result": ">1.56 µg/mL"}
{"compound": "O=C(Nc1c(F)cccc1F)OCCCN1CCN(c2nc3ccccc3s2)CC1", "endpoint": "MIC", "strain": "ATCC48130", "result": "0.26 µg/mL"}
{"compound": "C=C1C[C@@H]2C[C@@H]3CCO[C@@H](O3)c3coc(n3)/C=C/C[C@H]3O[C@@H](/C(C)=C/I)[C@H](C)[C@@H](OC(=O)/C=C\\C[C@@H](C1)O2)[C@H]3C", "endpoint": "MIC", "strain": "ATCC 14503", "read by": "broth dilution", "result": ">64 µg/mL"}
{"compound": "CCCCCCSc1cc(C(N)=S)ccn1", "endpoint": "MIC", "strain": "3a", "result": "6.25 µg/mL"}
{"compound": "CCCn1c(-c2ccccc2)nc2cc(NC(=S)Nc3ccccc3)ccc21", "endpoint": "MIC", "result": "25 µg/mL"}
{"compound": "CC(C)(C)[Si](C)(C)OCC1C=C(c2ccc(Cl)c(Cl)c2)C(=O)O1", "endpoint": "MIC50", "strain": "ATCC 90028", "result": ">32 µg/mL"}
{"compound": "CC(=O)Oc1cc(Cl)ccc1C(=O)Nc1ccc(Br)cc1", "endpoint": "MIC", "strain": "ATCC 44859", "result": "15.63 µg/mL"}
{"compound": "C=C(CN(C)C)C(=O)c1ccc(Cl)cc1", "endpoint": "MIC", "result": "32 µg/mL"}
{"compound": "O=C1CC(Sc2ccccn2)N1", "endpoint": "MIC", "result": "8–64 µg/mL"}
{"compound": "C=C1C[C@@H]2C[C@@H]3CCO[C@@H](O3)c3coc(n3)/C=C/C[C@H]3O[C@@H](/C(C)=C/C#N)[C@H](C)[C@@H](OC(=O)/C=C\\C[C@@H](C1)O2)[C@H]3C", "endpoint": "MIC", "strain": "96-489", "read by": "broth dilution", "result": ">64 µg/mL"}
{"compound": "CC(=O)Oc1cc(Cl)ccc1C(=O)Nc1ccc(Cl)cc1", "endpoint": "MIC", "strain": "ATCC 44859", "result": "31.25 µg/mL"}
{"compound": "CCC(C)n1ncn(-c2ccc(N3CCN(c4ccc(OC[C@H]5CO[C@](Cn6cncn6)(c6ccc(Cl)cc6Cl)O5)cc4)CC3)cc2)c1=O", "endpoint": "MIC50", "strain": "23 strains", "result": "0.06 µg/mL"}
{"compound": "COC(=O)/C=C/C(=O)NCC(NC(=O)[C@@H](C)N)C(=O)O", "endpoint": "MIC", "result": ">200 µg/mL"}
{"compound": "CC(=O)Oc1c(Cl)cccc1C(=O)Nc1ccc(C(F)(F)F)cc1", "endpoint": "MIC", "strain": "ATCC 44859", "result": "15.63 µg/mL"}
{"compound": "O=C(N=Nc1c(O)[nH]c2cc(Cl)ccc12)Nc1ccc([N+](=O)[O-])cc1", "endpoint": "MIC", "result": "1.56 µg/mL"}
{"compound": "COC(=O)/C=C/C(=O)NCC(NC(=O)[C@@H](N)CCCCN)C(=O)O", "endpoint": "MIC", "result": "6.25 µg/mL"}
{"compound": "O=C1OC(CO)C=C1c1ccc(Cl)c(Cl)c1", "endpoint": "MIC50", "strain": "ATCC 90028", "result": "32 µg/mL"}
{"compound": "O=C(N=Nc1c(O)[nH]c2cc(Cl)ccc12)Nc1ccc(Br)cc1", "endpoint": "MIC", "result": "1.56 µg/mL"}
{"compound": "Cc1nc2ccccc2n1CC(O)(Cn1cncn1)c1ccc(F)cc1F", "endpoint": "MIC", "result": "6.25–12.5 µg/mL"}
{"compound": "COC(=O)/C=C/C(=O)NCC(N)C(=O)N[C@@H](Cc1ccccc1)C(=O)O", "endpoint": "MIC", "result": "3.12 µg/mL"}
{"compound": "Nn1c(C23CC4CC(CC(C4)C2)C3)n[nH]c1=S", "endpoint": "MIC", "strain": "CNCM 1180-79", "result": ">300 µg/mL"}
{"compound": "CCCCCCCCC(OC)C(=O)O", "endpoint": "MIC", "strain": "ATCC 14053", "result": ">870 µM"}
{"compound": "CO/C=C(\\C(=O)OC)c1ccc(Cl)c(Cl)c1", "endpoint": "MIC50", "strain": "ATCC 90028", "result": ">32 µg/mL"}
{"compound": "COC(=O)/C=C/C(=O)NCC(NC(=O)[C@@H](N)Cc1ccccc1)C(=O)O", "endpoint": "MIC", "result": "3.12 µg/mL"}
{"compound": "CCCCCSc1cc(C(N)=S)ccn1", "endpoint": "MIC", "strain": "176", "result": "50 µg/mL"}
{"compound": "C=C1C[C@@H]2C[C@@H]3CCO[C@@H](O3)c3cccc(c3)/C=C/C[C@H]3O[C@@H](/C(C)=C/I)[C@H](C)[C@@H](OC(=O)/C=C\\C[C@@H](C1)O2)[C@H]3C", "endpoint": "MIC", "strain": "ATCC 14503", "read by": "broth dilution", "result": ">64 µg/mL"}
{"compound": "Cc1c(O)cccc1C(=O)N[C@@H](CSc1ccccc1)[C@H](O)CN1C[C@H]2CCCC[C@H]2C[C@H]1C(=O)NC(C)(C)C", "endpoint": "MIC", "strain": "I182B", "result": "64 µg/mL"}
{"compound": "CCCCCCCCSc1cc(C(N)=S)ccn1", "endpoint": "MIC", "strain": "176", "result": "12.5 µg/mL"}
{"compound": "COC(=O)/C=C/C(=O)NC[C@@H](NC(=O)[C@@H](C)N)C(=O)O", "endpoint": "MIC", "result": ">200 µg/mL"}
{"compound": "CCc1nc2ccccc2n1CC(O)(Cn1cncn1)c1ccc(F)cc1F", "endpoint": "MIC", "result": "6.25–12.5 µg/mL"}
{"compound": "NC(=S)c1ccnc(SC2CCCCC2)c1", "endpoint": "MFC", "strain": "42", "result": "100 µg/mL"}
{"compound": "C=C(CN(C)C)C(=O)c1ccc(OC)cc1", "endpoint": "MIC", "result": "32 µg/mL"}
{"compound": "Oc1ccccc1C1OC[C@@H](COCc2ccccc2)O1", "endpoint": "MIC", "strain": "ATCC 10231", "read by": "broth dilution", "result": "312.5 µg/mL"}
{"compound": "COC(=O)/C=C/C(=O)NCC(NC(=O)[C@@H](N)CCSC)C(=O)O", "endpoint": "MIC", "result": "0.78 µg/mL"}
{"compound": "C[C@@H](c1ncncc1F)[C@](O)(Cn1cncn1)c1ccc(F)cc1F", "conditions": "24 h", "endpoint": "MIC50", "strain": "Isolate M27-T-micro", "result": "0.048 µg/mL"}
{"compound": "Fc1ccc(-c2nc3cc(NC(=S)Nc4ccccc4)ccc3n2C2CCCC2)cc1", "endpoint": "MIC", "result": "25 µg/mL"}
{"compound": "CC(C)OC(=O)[C@@H]1OC(c2ccccc2O)O[C@H]1C(=O)OC(C)C", "endpoint": "MIC", "strain": "ATCC 10231", "read by": "broth dilution", "result": "156 µg/mL"}
{"compound": "O=C(NNC(=S)Nc1ccc(Cl)cc1Cl)c1cnccn1", "endpoint": "MIC", "strain": "CNCM 1180-79", "result": ">300 µg/mL"}

Repeating the first 6 entries:

compound	conditions	endpoint	strain	read by	result
S=C(S)n1nnc2ccccc21	48 h	EC50	Clinical isolate	broth dilution / absorbance	>50 µg/mL
NC(=O)N=Nc1c(O)[nH]c2cc(Cl)ccc12		MIC			>1.56 µg/mL
C=C1C[C@@H]2C[C@@H]3CCO[C@@H](O3)c3coc(n3)/C=C/C[C@H]3O[C@@H](/C(C)=C/c4coc(C[C@]5(O)C[C@H](OC)C[C@H]([C@H](O)/C=C(C)/C=C/[C@@H](C/C=C/Cl)OC)O5)n4)[C@H](C)[C@@H](OC(=O)/C=C\C[C@@H](C1)O2)[C@H]3C		MIC	96-489	broth dilution	4 µg/mL
CC(C)OC(=O)C1OC(c2ccccc2O)OC1C(=O)OC(C)C		MIC	ATCC 10231	broth dilution	156 µg/mL
CC(=O)Oc1cc(Cl)ccc1C(=O)N(C(C)=O)c1ccc(Br)cc1		MIC	ATCC 44859		≤31.25 µg/mL
Fc1ccc(-c2nc3cc(NC(=S)Nc4ccc(Cl)cc4)ccc3n2C2CCCC2)cc1		MIC			50 µg/mL